A mixed list of measured activities; the numbers were collected in NIAID ChemDB.

Shared fields: whole-cell or culture tests; agent: HIV-1; endpoint: EC50

a–b is a range or a potency band.

smiles | strain | changes | cell line | method | value
Cc1ccc(C(=O)NC(C)(C)C(=O)NC[C@H](O)[C@@]23CC[C@]4(C)[C@H](CC[C@@H]5[C@@]6(C)CC[C@H](OC(=O)[C@H]7C[C@@H](C(=O)O)C7(C)C)C(C)(C)[C@@H]6CC[C@]54C)C2=C(C(C)C)C(=O)C3)cn1 | 92HT599 |  | MT-2 | p24 / ELISA | <1 µM
COCc1nc(Nc2ccc(C#N)cc2)nc(Nc2c(C)cc(/C=C/C#N)cc2C)c1C(=O)NCCN(C)C | IIIB |  | MT4 CMV-EGFP |  | 0.00389 µM
CC(C)C1=C2[C@H]3CC[C@@H]4[C@@]5(C)CC[C@H](OC(=O)[C@H]6C[C@@H](C(=O)O)C6(C)C)C(C)(C)[C@@H]5CC[C@@]4(C)[C@]3(C)CC[C@@]2([C@@H](O)CN(CCN(C)C)C(=O)c2cccc(Cl)c2)CC1=O | 92HT599 |  | MT-2 | p24 / ELISA | <1 µM
Cc1cc(S(N)(=O)=O)ccc1NC(=O)COc1ccc(Cl)cc1C(=O)c1cc(F)cc(F)c1 | HXB2 | RT-K101E | HeLa + HELA CD4+ | β-galactosidase | <0.01 µM
Nc1c(C(=O)NCc2ccc(F)cc2F)c(=O)n(O)c2ncc(CCS(=O)(=O)CCN3CCOCC3)cc12 |  |  | HOS | luciferase | 0.195 µM
Cc1cncc(CN(CCN(C)C)CC[C@@]23CC[C@]4(C)[C@H](CC[C@@H]5[C@@]6(C)CC[C@H](OC(=O)[C@H]7C[C@@H](C(=O)O)C7(C)C)C(C)(C)[C@@H]6CC[C@]54C)C2=C(C(C)C)C(=O)C3)n1 | 92HT599 |  | MT-2 | p24 / ELISA | <1 µM
COCc1nc(Nc2ccc(C#N)cc2)nc(Nc2c(C)cc(/C=C/C#N)cc2C)c1C(=O)NCCNC(C)=O | IIIB |  | MT4 CMV-EGFP |  | 0.00562 µM
CC(=O)c1c(C)nc(-c2ccccc2)nc1NC(=O)c1ccccc1 | AE-CMU06 |  | HeLa | GFP / fluorescence | 0.1 µM
CC(C)C1=C2[C@H]3CC[C@@H]4[C@@]5(C)CC[C@H](OC(=O)[C@H]6C[C@@H](C(=O)O)C6(C)C)C(C)(C)[C@@H]5CC[C@@]4(C)[C@]3(C)CC[C@@]2(CCNCc2ccc(N3CCC(N4CCOCC4)CC3)cc2)CC1=O | 92HT599 |  | MT-2 | p24 / ELISA | <1 µM
C[C@H](Cn1cnc2c(N)ncnc21)OCP(=O)(O)O |  | HX/3AZT + 348 | TZM-bl |  | 18 µM
Cc1cc(C#N)cc(C(=O)c2cc(Cl)ccc2OCC(=O)Nc2cnc(S(N)(=O)=O)cc2C)c1 | HXB2 | RT-Y181C | HeLa + HELA CD4+ | β-galactosidase | <0.01 µM
CC(=O)OCCCc1cnc2c(c1)c(N)c(C(=O)NCc1ccc(F)cc1F)c(=O)n2O |  | AGT (GGGAGT) | HOS | luciferase | <0.001 µM
CC(C)C1=C2[C@H]3CC[C@@H]4[C@@]5(C)CC[C@H](OC(=O)[C@H]6C[C@@H](C(=O)O)C6(C)C)C(C)(C)[C@@H]5CC[C@@]4(C)[C@]3(C)CC[C@@]2(CCNCC2(NC(=O)c3ccc(Cl)cc3)CCC2)CC1=O | 92HT599 |  | MT-2 | p24 / ELISA | <1 µM
COCc1nc(Nc2ccc(C#N)cc2)nc(Nc2c(C)cc(/C=C/C#N)cc2C)c1C(=O)NC1CC1 | K103N + Y181C |  | MT4 CMV-EGFP |  | 0.0219 µM
COc1cc2c(cc1Cc1cccc(Cl)c1F)c(=O)c(C(=O)O)cn2[C@H](CO)C(C)C |  | AGT (GGGAGT) | HOS | luciferase | <0.001 µM
Cc1cc(S(N)(=O)=O)ccc1NC(=O)COc1ccc(Cl)cc1C(=O)c1cccc(C#N)c1 | HXB2 | RT-V106A | HeLa + HELA CD4+ | β-galactosidase | 0.011–0.1 µM
CC(C)C1=C2[C@H]3CC[C@@H]4[C@@]5(C)CC[C@H](OC(=O)[C@H]6C[C@@H](C(=O)O)C6(C)C)C(C)(C)[C@@H]5CC[C@@]4(C)[C@]3(C)CC[C@@]2(CC(=O)NCC(C)(C)NC(=O)c2ccc(Cl)cc2OCCN2CCCCC2)CC1=O | 92HT599 |  | MT-2 | p24 / ELISA | <1 µM
Cc1cc(S(N)(=O)=O)ccc1NC(=O)COc1ccc(Cl)cc1C(=O)c1cc(Cl)cc(C#N)c1 | HXB2 | RT-V108I | HeLa + HELA CD4+ | β-galactosidase | <0.01 µM
COCc1nc(Nc2ccc(C#N)cc2)nc(Nc2c(C)cc(/C=C/C#N)cc2C)c1C(=O)NCC1CCCO1 | IIIB |  | MT4 CMV-EGFP |  | 0.00525 µM
C[C@@H]1CCO[C@H]2Cn3cc(C(=O)NCc4ccc(F)cc4F)c(=O)c(O)c3C(=O)N12 |  | +G insertion (GGGGAGT) | HOS | luciferase | <0.001 µM
COCc1nc(Nc2ccc(C#N)cc2)nc(Nc2c(C)cc(/C=C/C#N)cc2C)c1C(=O)N(C)OC | L1001+K103N |  | MT4 CMV-EGFP |  | 0.0646 µM
CC1CC(C)CN(S(=O)(=O)c2ccccc2[N+](=O)[O-])C1 | A-92UG029 |  | HeLa | GFP / fluorescence | 1 µM
COCc1nc(Nc2ccc(C#N)cc2)nc(Nc2c(C)cc(/C=C/C#N)cc2C)c1C(=O)N1CCN(C)CC1 | MDR |  | MT4 CMV-EGFP |  | 9.55 µM
CC(C)C1=C2[C@H]3CC[C@@H]4[C@@]5(C)CC[C@H](OC(=O)[C@H]6C[C@@H](C(=O)O)C6(C)C)C(C)(C)[C@@H]5CC[C@@]4(C)[C@]3(C)CC[C@@]2([C@@H](O)CNCC(C)(C)NC(=O)c2nc3ccccc3[nH]2)CC1=O | 92HT599 |  | MT-2 | p24 / ELISA | <1 µM
Cc1cc(S(N)(=O)=O)ccc1NC(=O)COc1ccc(Cl)cc1C(=O)c1cc(F)cc(C(F)(F)F)c1 | HXB2 (RT-K103N Y181C) Recombinant | RT-K103N Y181C | HeLa + HELA CD4+ | β-galactosidase | <0.01 µM
CC(C)C1=C2[C@H]3CC[C@@H]4[C@@]5(C)CC[C@H](OC(=O)[C@H]6C[C@@H](C(=O)O)C6(C)C)C(C)(C)[C@@H]5CC[C@@]4(C)[C@]3(C)CC[C@@]2(CC(=O)NCC2(NC(=O)c3ccc(Cl)cc3)CCCC2)CC1=O | 92HT599 |  | MT-2 | p24 / ELISA | <1 µM
Cc1cc2[nH]cnc2cc1NC(=O)COc1ccc(Cl)cc1C(=O)c1cc(F)cc(C(F)(F)F)c1 | HXB2 | RT-G190E | HeLa + HELA CD4+ | β-galactosidase | <0.01 µM
CC(C)C1=C2[C@H]3CC[C@@H]4[C@@]5(C)CC[C@H](OC(=O)[C@H]6C[C@@H](C(=O)O)C6(C)C)C(C)(C)[C@@H]5CC[C@@]4(C)[C@]3(C)CC[C@@]2([C@@H](O)CNC(=O)C(C)(C)NC(=O)c2ccc(Cl)cc2OCCN2CCOCC2)CC1=O | 92HT599 |  | MT-2 | p24 / ELISA | <1 µM
COCc1nc(Nc2ccc(C#N)cc2)nc(Nc2c(C)cc(/C=C/C#N)cc2C)c1C(=O)NCCC#N | IIIB |  | MT4 CMV-EGFP |  | 0.00126 µM
Cc1cc(C#N)cc(C(=O)c2cc(Cl)ccc2OCC(=O)Nc2ccc(OCCCN3CC=CC3)cc2C)c1 | HXB2 | RT-K103N V108I | HeLa + HELA CD4+ | β-galactosidase | <0.01 µM

For reference, 2 entries again:

smiles,strain,changes,cell line,method,value
COCc1nc(Nc2ccc(C#N)cc2)nc(Nc2c(C)cc(/C=C/C#N)cc2C)c1C(=O)NCCN(C)C,IIIB,,MT4 CMV-EGFP,,0.00389 µM
Cc1cncc(CN(CCN(C)C)CC[C@@]23CC[C@]4(C)[C@H](CC[C@@H]5[C@@]6(C)CC[C@H](OC(=O)[C@H]7C[C@@H](C(=O)O)C7(C)C)C(C)(C)[C@@H]6CC[C@]54C)C2=C(C(C)C)C(=O)C3)n1,92HT599,,MT-2,p24 / ELISA,<1 µM

ECn: concentration that inhibits the pathogen or its effect by n%. Lines come from different laboratories, so protocols vary. Blank or dashed fields: not listed here.